From patent US20230293565A1, “USE OF WNT/BETA-CATENIN PATHWAY INHIBITORS TO BLOCK REPLICATION OF SARS-COV-2 AND OTHER PATHOGENIC VIRUSES” (THE GOVERNORS OF THE UNIVERSITY OF ALBERTA, priority 2020, published 2023)

Tested on: type I (IFNβ) interferon
Assay type: cell-based, human

chiglitazar
type I interferon (IFNβ) induction by PPAR gamma agonists (A549, 10 micromolar, Sendai 100 HAU/ml, 16 hours): upregulate type I interferon

iCRT-14
production of IFN (type I, IFNβ transcripts) in response to viral infection: significantly increased
